Measurements: patent US20060234971A1 (priority 2005, published 2006)

Tested on: prion replication in SMB cells
Assay: Bioassay of prion infectivity of treated SMB cells in CD-1 Swiss mice
Type: in vivo, mouse
Conditions: CD-1 Swiss mice (n=12) inoculated intracerebrally with SMB cells treated 7 passages with 50 μM; ±SEM; vehicle 126±1.3 days

For `CC(C)[C@H](NC(=O)OCc1ccccc1)C(=O)N[C@H](C=O)Cc1ccccc1` [MDL28170, Carbobenzoxy-valinyl-phenylalaninal], the mean incubation time was 170 ± 2 days.
